Anti-infective test results gathered from many reports (values: NIAID ChemDB through PubChem).

All rows: whole-cell or culture tests; species: HIV-1

Neighbouring rows are from separate reports.

SMILES | changes | strain or isolate | conditions | cell line | read-out | read by | value
COc1ccc(C[C@@H]2[C@H](O)[C@@H](O)[C@@H](Cc3ccc(OC)cc3)N(Cc3cccc(C(=O)Nc4nc5ccccc5[nH]4)c3)C(=O)N2Cc2cccc(C(=O)Nc3nc4ccccc4[nH]3)c2)cc1 |  | RF | 3 d | MT-2 | EC50 |  | <0.019 µM
O=C1N(Cc2ccc(CO)cc2)[C@H](Cc2ccccc2)[C@H](O)[C@@H](O)[C@@H](Cc2ccccc2)N1Cc1ccc(CO)cc1 | PR-L63P V82T I84V | NL4-3 |  | MT-4 | EC50 | p24 | <3 µM
Nc1ccn([C@H]2CC[C@@H](CO)O2)c(=O)n1 |  | BaL |  | MM + M/M | EC50 | antigen | 0.003 µM
CC(C)C[C@@H]1[C@H](O)[C@@H](O)[C@@H](CC(C)C)N(Cc2cccc(C(=O)Nc3nc4ccccc4[nH]3)c2)C(=O)N1Cc1cccc(C(=O)Nc2nc3ccccc3[nH]2)c1 |  | RF | 3 d | MT-2 | EC90 |  | 0.059 µM
CC(C)=CCN1Cc2cccc3[nH]c(=S)n(c23)C[C@@H]1C |  | IIIB |  | MT-2 | EC50 | cytopathic effect | 0.2 µM
C[C@H](Cn1cnc2c(N)ncnc21)OCP(=O)(O)O |  | IIIB |  | MT-2 | EC50 | cytopathic effect / XTT | 6.3 µM
Cc1cn([C@@H]2O[C@H](CO[Si](C)(C)C(C)(C)C)[C@@]3(OS(=O)(=O)C=C3N)[C@H]2O[Si](C)(C)C(C)(C)C)c(=O)[nH]c1=O |  | IIIB |  | CEM | EC50 | syncytia | 0.02 µg/mL
CCCCCN1C(=O)N(Cc2ccc3[nH]nc(N)c3c2)[C@H](Cc2ccccc2)[C@H](O)[C@@H](O)[C@H]1Cc1ccccc1 |  | RF |  | MT-2 | EC90 |  | 0.203 µM
Cc1cn([C@@H]2O[C@@H](CO[Si](C)(C)C(C)(C)C)C3(OS(=O)(=O)C=C3N)[C@@H]2O[Si](C)(C)C(C)(C)C)c(=O)[nH]c1=O |  | IIIB |  | MT-4 | EC50 | cytopathic effect / trypan blue | >100 µg/mL
Nc1ncnc2c1ncn2[C@H]1CC[C@@H](COC(=O)C(=O)N2CCCC2C(=O)N[C@H](Cc2ccccc2)C(=O)OCc2ccccc2)O1 |  | IIIB |  | MOLT-4 (HIV-1 IIIB) / M8166 + MOLT-4 | EC50 | syncytia | >150 µM
Nc1ccn([C@H]2CO[C@@H](CO)S2)c(=O)n1 |  | HXB2D |  | PBMC | EC50 | p24 | 0.3 µM
CC(C)(C)NC(=O)[C@@H]1C[C@@H]2CCCC[C@@H]2CN1C[C@@H](O)[C@H](Cc1ccccc1)NC(=O)[C@H](CC(N)=O)NC(=O)c1ccc2ccccc2n1 |  | IIIB |  | MT-2 | EC50 | cytopathic effect / XTT | 0.003 µM
Nc1cccc(CN2C(=O)N(Cc3cccc(N)c3)[C@H](Cc3ccccc3)[C@H](O)[C@@H](O)[C@H]2Cc2ccccc2)c1 | PR-D60E I84V | THAI (PR-D60E I84V) |  | MT-2 | EC50 | virus yield | <1.26 µM
O=C(OC[C@@H]1CC[C@H](n2cnc3c(=O)[nH]cnc32)O1)C(=O)N1CCCC1C(=O)N[C@H](Cc1ccccc1)C(=O)OCc1ccccc1 |  | IIIB |  | MOLT-4 (HIV-1 IIIB) / M8166 + MOLT-4 | EC50 | syncytia | >150 µM
Cc1ccnc2c1NC(=O)c1cccnc1N2C1CC1 | RT-L100I V106A G190A | B9 (RT L100I V106A G190A) |  | H9 | EC50 | p24 | >10 µg/mL
Cc1cn([C@@H]2O[C@H](CC3CCCCC3)C3(OS(=O)(=O)C=C3N)[C@H]2O[Si](C)(C)C(C)(C)C)c(=O)[nH]c1=O |  | IIIB |  | MT-4 | EC50 | cytopathic effect / trypan blue | >4 µg/mL
O=c1[nH]c(=O)n([C@H]2C[C@H](F)[C@@H](CO)O2)cc1/C(I)=C/I |  |  |  | PBMC | EC50 |  | 3.1 µM
CC(C)C[C@@H]1[C@H](O)[C@@H](O)[C@@H](Cc2ccccc2)N(Cc2cccc(C(=O)Nc3nc4ccccc4[nH]3)c2)C(=O)N1Cc1cccc(C(=O)Nc2nc3ccccc3[nH]2)c1 | PR-I84V | RF | 3 d | MT-2 | EC50 |  | <0.009 µM
NC1N=S(=O)(c2ccccc2)c2ccccc2N1 |  | IIIB |  | CEM + CEM-SS | EC50 | cytopathic effect / XTT | 119 µM
CC(C)CN(C[C@@H](O)[C@H](Cc1ccccc1)NC(=O)[C@H](CC(N)=O)NC(=O)c1ccc2ccccc2n1)C(=O)NC(C)(C)C | PR-L63P V82T | NL4-3 |  | MT-4 | EC95 | p24 | 0.2 µM
Cc1cn([C@H]2C[C@H](N=[N+]=[N-])[C@@H](CO)O2)c(=O)[nH]c1=O |  | LAI |  | CEM + CEM-SS | EC50 | RT activity | 0.014 µM
Nc1ncnc2c1ncn2[C@H]1C[C@@](F)(CC(F)(F)P(=O)(O)O)CO1 |  |  |  | PBMC | EC50 | RT activity | 23.8 µM
O=S1(c2ccccc2)=NC(=S)Nc2ccccc21 |  | IIIB |  | CEM + CEM-SS | EC50 | cytopathic effect / XTT | 3.28 µM
Cc1cn([C@H]2C[C@H](N=[N+]=[N-])[C@@H](CO)O2)c(=O)[nH]c1=O |  | IIIB |  | MT-2 | EC50 | cytopathic effect / XTT | 0.17 µM
COC(=O)N[C@H](C(=O)N[C@@H](Cc1ccccc1)[C@@H](O)CN(Cc1ccc(-c2ccccn2)cc1)NC(=O)[C@@H](NC(=O)OC)C(C)(C)C)C(C)(C)C |  | MN |  | MT-2 | EC50 |  | <0.003 µM
Nc1n[nH]c2ccc(CN3C(=O)N(Cc4ccc5ccccc5c4)[C@H](Cc4ccccc4)[C@H](O)[C@@H](O)[C@H]3Cc3ccccc3)cc12 | PR-S184V | RF |  | MT-2 | EC90 |  | 0.43 µM
NC(=O)c1ncn([C@@H]2O[C@H](CO)[C@@H](O)[C@H]2O)n1 | RT-D67N K70R K172R | IIIB |  | MT-4 | EC50 | cytopathic effect / MTT | >3.3 µM
COC(=O)C(=O)N1CCC[C@H]1C(=O)N[C@@H](Cc1ccccc1)C(=O)OCc1ccccc1 |  | IIIB |  | MT-4 | EC50 | antigen | 6.8 µM
Cc1cn([C@@H]2O[C@H](CO[Si](C)(C)C(C)(C)C)C3(OS(=O)(=O)C=C3N)[C@H]2O[Si](C)(C)C(C)(C)C)c(=O)n(C)c1=O |  | IIIB |  | MOLT-4 | EC50 | cytopathic effect / trypan blue | 0.017 µM
CCOP(=O)(OCC)C(F)(F)C[C@@]1(F)CO[C@@H](n2cnc3c(N)ncnc32)C1 |  |  |  | PBMC | EC50 | RT activity | 18.6 µM
O=C(Nc1nc2ccccc2[nH]1)c1cccc(CN2C(=O)N(Cc3cccc(C(=O)Nc4nc5ccccc5[nH]4)c3)[C@H](C3CCCCC3)[C@H](O)[C@@H](O)[C@H]2C2CCCCC2)c1 |  | RF | 3 d | MT-2 | EC90 |  | 0.014 µM
O=C(/C=C/c1cn([C@H]2C=C[C@@H](CO)O2)c(=O)[nH]c1=O)NCCCCCCNC(=O)C(F)(F)F |  | LAI |  | CEM + CEM-SS | EC50 | RT activity | 560 µM
COc1ccc(S(=O)(=O)O)cc1N=Nc1c(S(=O)(=O)O)cc2cc(Nc3nc(Nc4ccccc4)nc(Nc4cc(C)c(N=Nc5cc(S(=O)(=O)O)cc6cc(S(=O)(=O)O)cc(O)c56)cc4OC)n3)ccc2c1O |  | NL4-3 |  | MT-4 | EC50 | cytopathic effect / MTT | 0.7 µg/mL
Cc1cn([C@H]2C[C@H](N=[N+]=[N-])[C@@H](COC(=O)C(=O)N3CCCC3C(=O)N[C@@H](Cc3ccccc3)C(=O)OCc3ccccc3)O2)c(=O)[nH]c1=O |  | IIIB |  | MOLT-4 (HIV-1 IIIB) / M8166 + MOLT-4 | EC50 | syncytia | >150 µM
Cc1cn([C@H]2C[C@H](N=[N+]=[N-])[C@@H](CO)O2)c(=O)[nH]c1=O | RT-L100I | R82150 (RT-L100I) |  | MT-2 | EC50 | cytopathic effect | 0.06 µM
CCOP(=O)(OCC)C(F)(F)C[C@@]1(F)CO[C@H](n2cc(C)c(=O)[nH]c2=O)C1 |  |  |  | PBMC | EC50 | RT activity | 80 µM
Cc1cn([C@H]2C[C@H](N=[N+]=[N-])[C@@H](CO)O2)c(=O)[nH]c1=O |  |  |  | PBMC | EC50 |  | 0.016 µM
O=c1c2cccn2c2cccc(F)c2n1CCNC(=S)Nc1ccc(Br)cn1 |  | IIIB |  | C8166 | EC50 | cytopathic effect / MTT | 0.025 µM
CC(C)(O)c1cccc(CN2C(=O)N(Cc3cccc(C(C)(C)O)c3)[C@H](Cc3ccccc3)[C@H](O)[C@@H](O)[C@H]2Cc2ccccc2)c1 |  | RF |  | MT-2/MT-4 + MT-2 | EC90 |  | 0.0337 µM
Cc1cn([C@@H]2O[C@H](CO)C3(OS(=O)(=O)C=C3N)[C@H]2O)c(=O)[nH]c1=O |  | HE |  | MT-4 | EC50 | cytopathic effect / trypan blue | >300 µM
O=c1c2cccn2c2ccccc2n1CCNC(=S)Nc1ccc(Cl)cn1 |  | IIIB |  | CEM + CEM-SS | EC50 | cytopathic effect / MTT | 0.031 µM
O=c1[nH]cnc2c1ncn2[C@H]1CC[C@@H](CO)O1 | RT-D67N K70R K172R | IIIB |  | MT-4 | EC50 | cytopathic effect / MTT | 10.8 µM
Cc1cn([C@H]2C=C[C@@H](CO)O2)c(=O)[nH]c1=O | RT-D67G | HxB2D(RT-D67G) |  | PBMC | EC50 | p24 | 0.35 µM
COc1ccc2c(c1)N(C(=O)OC(C)C)[C@@H](CSC)C(=S)N2 | RT-K101I K103N Y181C G190A | B8 (RT K101I K103N Y181C G190A) |  | H9 | EC50 | p24 | >10 µg/mL
CN(C)c1ccc(C[C@@H]2[C@H](O)[C@@H](O)[C@@H](Cc3ccc(N(C)C)cc3)N(Cc3cccc(C(=O)Nc4nc5ccccc5[nH]4)c3)C(=O)N2Cc2cccc(C(=O)Nc3nc4ccccc4[nH]3)c2)cc1 |  | RF | 3 d | MT-2 | EC50 |  | <0.008 µM
COC(=O)[C@H](C)NP(=O)(OC[C@@H]1CC[C@H](n2cnc3c(N)ncnc32)O1)Oc1ccccc1 |  | BaL |  | MM + M/M | EC50 | antigen | 0.004 µM
O=C(OC[C@@H]1CC[C@H](n2ccc(=O)[nH]c2=O)O1)C(=O)N1CCCC1C(=O)N[C@H](Cc1ccccc1)C(=O)OCc1ccccc1 |  | IIIB |  | MOLT-4 (HIV-1 IIIB) / M8166 + MOLT-4 | EC50 | syncytia | >150 µM
O=c1c2cccn2c2cc(Cl)c(Cl)cc2n1CCNC(=S)Nc1ccc(Br)cn1 |  | IIIB |  | C8166 | EC50 | cytopathic effect / MTT | >2 µM
[N-]=[N+]=N[C@H]1C[C@H](n2cc(/C(Br)=C\I)c(=O)[nH]c2=O)O[C@@H]1CO |  |  |  | PBMC | EC50 |  | 1.1 µM
O=c1[nH]cnc2c1ncn2[C@H]1CC[C@@H](CO)O1 | RT-L100I | R82150 (RT-L100I) |  | MT-2 | EC50 | cytopathic effect | 2.5 µM
Nc1ncnc2c1ncn2[C@H]1C=C[C@@H](CO)O1 |  | BaL |  | MM + M/M | EC50 | antigen | 5 µM
N#C[C@]1(CO)O[C@@H](n2cnc3c(=O)[nH]cnc32)C[C@@H]1O |  | IIIB |  | MT-4 | EC50 | cytopathic effect / MTT | 0.051 µM
Nc1nc(=O)n([C@@H]2CO[C@H](CO)S2)cc1F | RT-K65R | HXB2D (RT-K65R) |  | PBMC | EC50 | p24 | 11.5 µM
O=c1c2cccn2ccn1CCNC(=S)Nc1ccc(Br)cn1 |  | IIIB |  | C8166 | EC50 | cytopathic effect / MTT | 0.041 µM
COC(=O)[C@H](C)NP(=O)(OC[C@@H]1CC[C@H](n2ccc(N)nc2=O)O1)Oc1ccccc1 |  | BaL |  | MM + M/M | EC90 | antigen | 0.48 µM
Cc1cn([C@H]2C[C@H](N=[N+]=[N-])[C@@H](CO)O2)c(=O)[nH]c1=O |  | IIIB |  | C8166 | EC50 | cytopathic effect / MTT | 0.4 µM
Cc1nnc(C(C)C)n1C1C[C@H]2CC[C@@H](C1)N2CC[C@H](NC(=O)C1CCC(F)(F)CC1)c1ccccc1 |  | X4 |  |  | EC50 |  | >1000 nM
Cc1cn([C@H]2C[C@H](N=[N+]=[N-])[C@@H](COC(=O)C(=O)N[C@@H](CO)C(=O)N[C@@H](Cc3ccccc3)C(=O)N[C@@H](CC(C)C)C(=O)N[C@H](C(=O)O)[C@@H](C)O)O2)c(=O)[nH]c1=O |  | IIIB |  | MT-4 | EC50 | antigen | 0.022 µM
Cc1ccnc2c1NC(=O)c1cccnc1N2C1CC1 | RT-M41L T215Y K101E |  |  | MT-4 | EC95 |  | 1.5 µM
CC(C)(C)[Si](C)(C)OC[C@H]1O[C@@H](n2ccc(=O)[nH]c2=O)[C@H](O[Si](C)(C)C(C)(C)C)C12OS(=O)(=O)C=C2N |  | IIIB |  | MOLT-4 | EC50 | syncytia | 0.174 µM
CC(C)(C)C(=O)SCCOP(=O)(OCCSC(=O)C(C)(C)C)C(F)(F)C[C@@]1(F)CO[C@@H](n2cnc3c(N)ncnc32)C1 |  |  |  | PBMC | EC50 | RT activity | 10.8 µM
O=C1N(Cc2cccc(CO)c2)[C@H](Cc2ccccc2)[C@H](O)[C@@H](O)[C@@H](Cc2ccccc2)N1Cc1cccc(CO)c1 |  | RF |  | MT-2/MT-4 + MT-2 | EC50 |  | <0.0388 µM
Cc1cn([C@@H]2O[C@@H](COC(=O)c3ccccc3)C3(OS(=O)(=O)C=C3N)C2O[Si](C)(C)C(C)(C)C)c(=O)[nH]c1=O |  | IIIB |  | CEM | EC50 | syncytia | >100 µg/mL
O=c1[nH]cnc2c1ncn2[C@H]1CC[C@@H](CO)O1 |  | HXB2D |  | PBMC | EC50 | p24 | 2.8 µM
CC(C)C(N[C@@H](Cc1ccccc1)[C@@H](O)[C@H](O)[C@H](Cc1ccccc1)NC(C(=O)OCc1ccccc1)C(C)C)C(=O)OCc1ccccc1 |  | NL4-3 |  | PBMC | EC50 | p24 | 0.1 µM
O=C1N(Cc2ccc3[nH]ncc3c2)[C@H](Cc2ccccc2)[C@H](O)[C@@H](O)[C@@H](Cc2ccccc2)N1Cc1ccc2[nH]ncc2c1 |  | RF |  | MT-2 | EC50 |  | <0.008 µM

ECn is the concentration giving n% inhibition of infection, replication or growth. Blank or dashed fields: not listed here.